# System: AbTetR (TetR class G) (Acinetobacter baumannii AYE)
# Assay: EMSA
# Settings: 5 uM AbTetR, 70 ng poly[d(I-C)]; recombinant protein; residues 1-208; protein details: C-terminal His6; probe letters rebuilt from the primers and the genome
sequence,measurement,value
GCACAAGCTCACGCAGAAGCGTCGGAAGGACGGGCATGATGAGGCCGAGACCCATGGCGTCAAGACCCACGATCAGCAGGGCAATGATGGCAGAGCTGCGCACCTGAAACTCCAGCGCCGCTCAATGGAGCGACTTTATCAACGATAAGGAGATGGACATATAACTTATCGGTGATAAATTGTCAAGCACTGGCGAAGGAACGTGAATGACCAAACTGGACAAGGGCACCGTGATCGCGGCGGCGCTAGAGCTGTTGAACGAGGTTGGCATGGACAGCCTGACGACGCGGAAGCTCGCTGAACGCCTCAAGGTTCAGCA (double strand) [319 bp tetR-tetA(G) fragment],binding result,binds
